Measurements reported in PubChem BioAssay AID624099 (ICCB-Longwood, 2012)
Shown is an unselected part of about 21,000 reagents tested. 497 of all reagents (2.4%) were called active. 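Higher z means weaker E2 silencing; only reporter increases were scored, and knock-downs that hurt cell survival may mask genuine repressor factors.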 A number with no mark means an inactive call.

Purpose: 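Human genes that papillomavirus E2 requires to repress the HPV18 LCR promoter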 (primary screen)
Cells: human C33A cervical carcinoma cells (HPV-negative) stably expressing BPV1 E2 and an HPV18 LCR luciferase reporter
Knock-down reagent: siRNA pool against human genes, 40 nM
Timing: 72 h
Measured: 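HPV18 LCR reporter light per well, converted to plate-wise z-scores that exclude control wells, and averaged over triplicate plates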
Reading the numbers: mean z-score and z-score: higher = stronger reporter signal, weaker E2 silencing
Active means: 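Mean z ≥ 2 together with z ≥ 2 in two or more of the three replicates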

no.	target gene	PubChem SID	mean z-score	z-score, replicate A	z-score, replicate B	z-score, replicate C
1	FCSK (GeneID 197258)	SID56479171	-0.6	-0.15	-0.87	-0.77
2	THEM6 (GeneID 51337)	SID134324434	0.49	0.66	0.49	0.31
3	SLC19A1 (GeneID 6573)	SID134312470	-0.83	-1.01	-0.69	-0.78
4	PEA15 (GeneID 8682)	SID134315052	1.24	1.26	1.24	1.23
5	ARMC8 (GeneID 25852)	SID134322709	-0.6	-0.73	-0.79	-0.29
6	RMDN1 (GeneID 51115)	SID134324634	-0.02	-0.14	-0.05	0.14
7	HSD17B6 (GeneID 8630)	SID134314043	-0.52	-0.58	-0.39	-0.59
8	SCUBE3 (GeneID 222663)	SID134322233	-2.05	-1.87	-2.24	-2.13
9	LARP4 (GeneID 113251)	SID134320512	-1.25	-1.35	-1.6	-0.79
10	NIPAL4 (GeneID 348938)	SID134326028	0.93	0.93	0.83	1.01
11	BAP1 (GeneID 8314)	SID134311218	0.41	0.49	0.54	0.21
12	TTC8 (GeneID 123016)	SID134325000	0.7	0.74	1.11	0.25
13	TAS2R42 (GeneID 353164)	SID134313952	0.19	0.18	0.3	0.08
14	INAVA (GeneID 55765)	SID134324005	1	1.05	0.91	1.03
15	STX16 (GeneID 8675)	SID134323253	1.31	1.32	1.32	1.3
16	RGS4 (GeneID 5999)	SID134314594	-0.07	0	-0.2	-0.03
17	JAK2 (GeneID 3717)	SID56478524	-3.83	-3.65	-4.17	-3.66
18	FES (GeneID 2242)	SID56478510	-1.22	-0.93	-1.17	-1.55
19	TENM3 (GeneID 55714)	SID134325944	0.18	0.15	0.03	0.37
20	PNRC1 (GeneID 10957)	SID134323684	0.78	1.01	0.8	0.53
21	SNRPD2 (GeneID 6633)	SID134317835	-1.17	-1.61	-1.24	-0.66
22	ABCA10 (GeneID 10349)	SID134313403	0.32	0.36	0.28	0.32
23	DNAJB8 (GeneID 165721)	SID134320849	0.33	0.47	0.24	0.28
24	CSNK1E (GeneID 1454)	SID56478659	-0.3	-0.28	-0.61	0
25	RTTN (GeneID 25914)	SID134328931	0.56	0.53	0.74	0.4
26	ROCK2 (GeneID 9475)	SID56478808	2.08 (active)	1.8	2.05	2.4
27	BMERB1 (GeneID 89927)	SID134319138	0.19	0.14	0.11	0.32
28	KCNJ2-AS1 (GeneID 400617)	SID134328735	-0.74	-0.7	-0.54	-0.99
29	GPR62 (GeneID 118442)	SID134311027	-1.54	-1.56	-1.2	-1.86
30	NOX1 (GeneID 27035)	SID134314803	-0.93	-1.03	-1.16	-0.61
31	ALDH1A1 (GeneID 216)	SID134313580	0.22	-0.23	0.46	0.42
32	DSCR8 (GeneID 84677)	SID134319014	0.8	0.27	1.09	1.04
33	WDR24 (GeneID 84219)	SID134318911	-0.2	-0.6	-0.09	0.11
34	RBBP9 (GeneID 10741)	SID134321548	0.71	0.98	0.84	0.32
35	NACAD (GeneID 23148)	SID134326324	-0.41	-0.45	-0.35	-0.43
36	BMPR1A (GeneID 657)	SID56478925	-0.39	-0.69	-0.21	-0.26
37	LIN37 (GeneID 55957)	SID134317541	-0.23	-0.36	-0.08	-0.25
38	RAB20 (GeneID 55647)	SID134313196	0.5	0.37	0.34	0.78
39	AFF3 (GeneID 3899)	SID134315665	0.54	0.52	0.49	0.61
40	CA5A (GeneID 763)	SID134313802	-0.2	-0.15	-0.34	-0.12
41	ST6GALNAC2 (GeneID 10610)	SID134323885	1.51	1.46	1.65	1.43
42	NOS1 (GeneID 4842)	SID134314231	-0.74	-0.37	-0.87	-0.97
43	PLK5 (GeneID 126520)	SID134325877	-2.12	-2.22	-2.16	-1.97
44	TJP1 (GeneID 7082)	SID134312717	0.06	-0.05	0.14	0.11
45	DDN (GeneID 23109)	SID134326691	0.19	0.61	-0.06	0.03
46	LOC401065 (retired record) (GeneID 401065)	SID134327325	-0.21	-0.21	0	-0.41
47	MAN2C1 (GeneID 4123)	SID134313207	-0.51	-0.46	-0.48	-0.6
48	ADGRG7 (GeneID 84873)	SID134310985	0.46	1	0.17	0.2
49	KANK3 (GeneID 256949)	SID134329242	-0.3	-0.06	-0.22	-0.63
50	SRP68 (GeneID 6730)	SID134310754	-0.48	-0.51	-0.45	-0.48
51	TUBA4B (GeneID 80086)	SID134313534	1.41	1.35	1.41	1.48
52	MEA1 (GeneID 4201)	SID134324060	-0.1	-0.21	-0.01	-0.09
53	RPL23AP8 (GeneID 641614)	SID134325264	-3.02	-3.26	-2.83	-2.97
54	PRPS1 (GeneID 5631)	SID56479145	1.58	1.52	1.35	1.88
55	GCNT3 (GeneID 9245)	SID134316235	0.23	0.62	0.02	0.05
56	ROBO4 (GeneID 54538)	SID134319265	1.61	1.76	1.23	1.83
57	ZCCHC17 (GeneID 51538)	SID134320843	-0.72	-0.52	-1.06	-0.57

Called active (from the list above):
target gene	PubChem SID	mean z-score	z-score, replicate A	z-score, replicate B	z-score, replicate C
ROCK2 (GeneID 9475)	SID56478808	2.08 (active)	1.8	2.05	2.4
